{"source": "patent US20050244819", "system": "beta-Gal^PR, engineered E. coli beta-galactosidase with the HIV p6/PR cleavage site decapeptide inse [β-galactosidase: P00722]"}
{"substance": "wild-type HIV protease (mature HIV-1 NL4.3 protease released by autoprocessing of the precursor TF-PR^WT in E. coli)", "values": [{"measurement": "β-galactosidase activity", "value": 0.041, "unit": "µmol/min/mg"}]}
